Compound potency records, mixed from different reports. Data source: NIAID ChemDB in PubChem.

Common to all: tests on isolated targets; species: Hepatitis C virus; protein: Nonstructural protein 5B; measure: inhibition

Rows are shuffled and stem from different studies. Percent inhibition refers to the dose given; in toxicity tests it is the harm to the cells.

smiles | dose | value
O=C(c1ccc(S(=O)(=O)Nc2ccc(N3CCOCC3)cc2)cc1)N(Cc1ccccn1)Cc1ccccn1 | 10 µg/mL | 90%
CSc1nc(Nc2ccc(N3CCOCC3)cc2)cc(N2CCN(CC(=O)N(C)CCN(C)C)CC2)n1 | 1 µg/mL | 70%
O=C(NCCc1ccncc1)c1ccc(S(=O)(=O)Nc2ccc(N3CCOCC3)cc2)cc1 | 1 µg/mL | 58%
CNC(=O)CN1CCN(c2cc(Nc3ccc(N4CCOCC4)cc3)nc(SC)n2)CC1 | 1 µg/mL | 63%
CN(C)CCN(Cc1ccccc1)C(=O)c1ccc(S(=O)(=O)Nc2ccc(N3CCOCC3)cc2)cc1 | 10 µg/mL | 95%
CC(Cc1ccccn1)Nc1cc(C(=O)Nc2ccc3cn[nH]c3c2)c(F)cc1F | 10 µg/mL | 46%
COc1nc(NCCc2ccccn2)nc(Nc2ccc3[nH]ncc3c2)n1 | 1 µg/mL | 28%
CSc1nc(Nc2ccc(N3CCOCC3)cc2)cc(N2CCN(CC(=O)N3CCN(c4ccccc4O)CC3)CC2)n1 | 1 µg/mL | 60%
COCCNc1nc(Nc2ccc3[nH]ncc3c2)nc(OC)n1 | 1 µg/mL | 61%
CCN(CC)C(=O)CN1CCN(c2cc(Nc3ccc(N4CCOCC4)cc3)nc(SC)n2)CC1 | 1 µg/mL | 68%
O=C(Nc1ccc2[nH]ncc2c1)c1cc(NCCCn2ccnc2)c(F)cc1F | 1 µg/mL | 46%
CSc1nc(Nc2ccc(N3CCOCC3)cc2)cc(N2CCN(CC(=O)N3CCCCC3)CC2)n1 | 1 µg/mL | 74%
CN(C)CCNc1cc(C(=O)Nc2ccc3[nH]ncc3c2)c(F)cc1F | 0.1 µg/mL | 46%
COc1nc(Nc2ccc3[nH]ncc3c2)nc(N2CCOCC2)n1 | 1 µg/mL | 52%
O=C(NCCN1CCOCC1)c1ccc(S(=O)(=O)Nc2ccc(N3CCOCC3)cc2)cc1 | 0.01 µg/mL | 15%
CSc1nc(Nc2ccc(N3CCOCC3)cc2)cc(N2CCN(CC(=O)N3CCC(C)CC3)CC2)n1 | 1 µg/mL | 67%
COc1nc(Nc2ccc3[nH]ncc3c2)nc(NN2CCN(C)CC2)n1 | 1 µg/mL | 29%
NS(=O)(=O)c1ccc(CCNc2cc(C(=O)Nc3ccc4cn[nH]c4c3)c(F)cc2F)cc1 | 1 µg/mL | 44%
COc1nc(NCCN2CCOCC2)nc(Nc2ccc3[nH]ncc3c2)n1 | 0.1 µg/mL | 0%
O=C(Nc1ccc2cn[nH]c2c1)c1cc(NCCCn2ccnc2)c(F)cc1F | 10 µg/mL | 76%
COc1nc(Nc2ccc3cn[nH]c3c2)nc(-n2ccnc2)n1 | 10 µg/mL | 40%
CCN(CC)CCN(CC)C(=O)CN1CCN(c2cc(Nc3ccc(N4CCOCC4)cc3)nc(SC)n2)CC1 | 1 µg/mL | 75%

2 of the rows above, restated:

smiles	dose	value
CCN(CC)C(=O)CN1CCN(c2cc(Nc3ccc(N4CCOCC4)cc3)nc(SC)n2)CC1	1 µg/mL	68%
CCN(CC)CCN(CC)C(=O)CN1CCN(c2cc(Nc3ccc(N4CCOCC4)cc3)nc(SC)n2)CC1	1 µg/mL	75%